Results deposited as PubChem BioAssay AID624099 (ICCB-Longwood, 2012).

Purpose: 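Human genes that papillomavirus E2 requires to repress the HPV18 LCR promoter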 (primary screen)
Cell system: human C33A cervical carcinoma cells (HPV-negative) stably expressing BPV1 E2 and an HPV18 LCR luciferase reporter
Reagents: siRNA pool against human genes, 40 nM
Duration: 72 h
Read-out: 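HPV18 LCR reporter light per well, converted to plate-wise z-scores that exclude control wells, and averaged over triplicate plates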
Scale: mean z-score and z-score: higher = stronger reporter signal, weaker E2 silencing
Rule for the call: 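Hit if mean z-score reaches 2 and two or more of three replicate z-scores also reach 2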
This is one part, drawn at random, of about 21,000 reagents tested. Of all reagents, 497 (2.4%) got an active call. 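Higher z means weaker E2 silencing; only reporter increases were scored, and knock-downs that hurt cell survival may mask genuine repressor factors.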 Entries without a mark were called inactive. Reagent sequences are not shown.

| target | mean z-score | z-score, replicate A | z-score, replicate B | z-score, replicate C |
| --- | --- | --- | --- | --- |
| RPSAP10 (ribosomal protein SA pseudogene 10) | -0.62 | -0.89 | -0.21 | -0.77 |
| TMEM126B (transmembrane protein 126B) | -0.27 | -0.37 | -0.37 | -0.05 |
| CCNT1 (cyclin T1) | -0.15 | -0.29 | 0.1 | -0.26 |
| FNTAP1 (farnesyltransferase, CAAX box, alpha pseudogene 1) | -0.15 | -0.26 | -0.14 | -0.04 |
| ZNF133 (zinc finger protein 133) | -0.21 | -0.07 | -0.32 | -0.24 |
| UCP2 (uncoupling protein 2) | -0.05 | -0.03 | 0.12 | -0.24 |
| KRT18 (keratin 18) | -0.82 | -0.85 | -0.67 | -0.94 |
| STXBP5 (syntaxin binding protein 5) | -0.56 | -0.77 | -0.58 | -0.32 |
| HCFC1R1 (host cell factor C1 regulator 1) | 1.23 | 1.39 | 1.51 | 0.8 |
| LDB3 (LIM domain binding 3) | -0.89 | -0.79 | -0.9 | -0.96 |
| EPDR1 (ependymin related 1) | 1.19 | 1.17 | 1.32 | 1.08 |
| ECD (ecdysoneless cell cycle regulator) | -0.3 | -0.28 | -0.35 | -0.28 |
| ELOVL7 (ELOVL fatty acid elongase 7) | 1.3 | 1.51 | 1.53 | 0.85 |
| LOC388504 (retired record) | -1.34 | -1.57 | -1.15 | -1.3 |
| LOC389149 (retired record) | 0.75 | 0.45 | 0.98 | 0.82 |
| FARSB (phenylalanyl-tRNA synthetase subunit beta) | 1 | 1.17 | 0.72 | 1.1 |
| LHX2 (LIM homeobox 2) | 1.18 | 1.19 | 0.97 | 1.38 |
| CSDE1 (cold shock domain containing E1) | 0.42 | -0.43 | 0.82 | 0.86 |
| GFRAL (GDNF family receptor alpha like) | -2.13 | -2.67 | -1.42 | -2.31 |
| AXIN1 (axin 1) | 0.4 | 0.32 | 0.32 | 0.58 |
| AASDH (aminoadipate-semialdehyde dehydrogenase) | 0.51 | 0.72 | 0.6 | 0.21 |
| ATRAID (all-trans retinoic acid induced differentiation factor) | -0.01 | -0.03 | -0.1 | 0.09 |
| ZNF627 (zinc finger protein 627) | -0.32 | 0.07 | -0.58 | -0.46 |
| PRKX (protein kinase cAMP-dependent X-linked catalytic subunit) | 0.01 | 0.21 | -0.06 | -0.13 |
| CLNS1A (chloride nucleotide-sensitive channel 1A) | -0.92 | -1.08 | -0.81 | -0.87 |
| HOXB4 (homeobox B4) | 0.04 | 0.05 | 0.06 | 0.01 |
| VPS25 (vacuolar protein sorting 25 homolog) | 0.53 | 0.47 | 0.65 | 0.47 |
| MLPH (melanophilin) | -1.35 | -1.64 | -1.5 | -0.9 |
| CHODL (chondrolectin) | -0.05 | -0.42 | 0.11 | 0.16 |
| UBE2J2 (ubiquitin conjugating enzyme E2 J2) | 0.28 | 0.13 | 0.49 | 0.24 |
| HTR3B (5-hydroxytryptamine receptor 3B) | 0.57 | 0.7 | 0.6 | 0.4 |
| TBXT (T-box transcription factor T) | 1.02 | 1.14 | 0.88 | 1.04 |
| TMEM176B (transmembrane protein 176B) | 0.31 | 0.55 | 0 | 0.37 |
| MICU2 (mitochondrial calcium uptake 2) | 0.14 | 0.32 | 0.2 | -0.08 |
| LOC389204 (retired record) | -0.77 | -0.68 | -0.86 | -0.77 |
| SKIC3 (SKI3 subunit of superkiller complex) | -0.79 | -0.67 | -0.91 | -0.81 |
| SYT8 (synaptotagmin 8) | 0.93 | 0.74 | 1.08 | 0.98 |
| FAM89A (family with sequence similarity 89 member A) | 0.88 | 0.76 | 0.81 | 1.08 |
| LAMP2 (lysosome associated membrane protein 2) | 1.62 | 1.67 | 1.6 | 1.59 |

No new results follow: an excerpt of the list.
| target | mean z-score | z-score, replicate A | z-score, replicate B | z-score, replicate C |
| --- | --- | --- | --- | --- |
| CHODL (chondrolectin) | -0.05 | -0.42 | 0.11 | 0.16 |
| UBE2J2 (ubiquitin conjugating enzyme E2 J2) | 0.28 | 0.13 | 0.49 | 0.24 |
| HTR3B (5-hydroxytryptamine receptor 3B) | 0.57 | 0.7 | 0.6 | 0.4 |
| TBXT (T-box transcription factor T) | 1.02 | 1.14 | 0.88 | 1.04 |
| TMEM176B (transmembrane protein 176B) | 0.31 | 0.55 | 0 | 0.37 |
